Data set [1] concerns the target CoV-2 Nsp13 helicase (SARS-CoV-2) (UniProt P0DTD1). Put plainly: fluorescence anisotropy. Particulars: single strands preferred, recombinant protein, protein details: N-terminal SUMO tag removed with SUMO protease, label: 3'-6-FAM. For orientation: In fluorescence polarisation assays a small probe gives low polarisation when free and higher when bound to something large.

For data set [2], the target named is CoV-2 N (nucleocapsid) (SARS-CoV-2) (UniProt P0DTC9). Put plainly: fluorescence anisotropy. Particulars: single strands preferred, FP: 25 mM Tris-HCl pH 7.6, 50 mM NaCl, no Mg2+, 5 nM labelled nucleic acid, 5 min, temperature not stated, Kd from Hill fits (values not in the text), recombinant protein, residues 1-419, protein details: His6, label: 3'-6-FAM.

Experimental findings from article PMC12702239 are described below.

The exact form of at least one protein or probe is not confirmed. At least one verdict was read from the data and is not stated in words by the source.

CGATGTTTTATTTACATTGTA [D-S21]: the binding result in data set [1] (single-stranded DNA) and in data set [2] (single-stranded DNA) was “binds” in each case.

For the sequence UACAAUGUAAAUAAAACAUCG [R-S21], the binding result in data set [1] (RNA over DNA) and in data set [2] (RNA over DNA) was “binds” throughout.
